A mixed list of measured activities; the numbers were collected in NIAID ChemDB.

Common to all: growth or infection tests; agent: Mycobacterium smegmatis; endpoint: MIC

Rows are shuffled and stem from different studies. a–b is a range or a potency band. Blank or dashed fields: not listed here.

structure | strain | changes | method | value
Fc1ccc(C(Cn2ccnc2)NC/C=C/c2ccccc2)cc1 | CIP 103599 | - | - | >16 µg/mL
Cc1ccc(-c2nc(C)c(-c3cn4ccccc4n3)s2)cc1 | mc2155 | - | broth dilution / absorbance | >50 µg/mL
COc1cccc(-c2[nH]c3ccccc3c2C2=C(Br)C(=O)N(C)C2=O)c1 | SG987 | - | - | 3.125 µg/mL
Cc1nc(-c2ccccc2)sc1-c1cn2cc(Cl)ccc2n1 | mc2155 | - | broth dilution / absorbance | >50 µg/mL
CCCCCCCCC(O)[C@@H]1O[C@H]([C@H](O)CN)C(O)C1O | mc2155 | - | absorbance | 0.3 µM
CCCCCCCCCCC#CCCCC(=O)O | mc2155 | - | - | 80 µg/mL
O=C1CCC(=O)N(O)CCCCCNC(=O)CCC(=O)N(O)CCCCCNC(=O)CCC(=O)N(O)CCCCCN1 | mc2155 | - | MTT | >160 µM
CCCCCCCCCCCCCCCCCCCCCC(=O)NC(CCC(=O)O)(CCC(=O)O)CCC(=O)O | mc155 | - | - | 27 µg/mL
C=C1C2CCC(CO)[C@@]23CC[C@H](C3)C1(C)C | - | MDR quinolone-resistant | agar diffusion | 25 µg/mL
CC(C)c1ccc(-n2c(=O)sn(-c3ccc(SC(F)(F)F)cc3)c2=O)cc1 | mc2155 | - | broth dilution | 25 µg/mL
CC[C@H](C)[C@@H](NC(=O)[C@@H](CCC(=O)O)NC(=O)[C@H](Cc1cnc[nH]1)NC(=O)[C@H](CC(C)C)NC(=O)[C@H](N)Cc1ccccc1)C(=O)N[C@H]1CCCCNC1=O | - | - | - | 0.78 µg/mL
Cc1c(C)c(C)[c-](C)c1C.N[C@@H](Cc1ccccc1)C(=O)[O-].[Cl][Ir+2] | VT 307 | - | - | 10 µg/mL
CCCCCCCCCCCCCCCCC#CC(=O)O | mc2155 | - | - | 35 µg/mL
COc1c(N2CCSCC2)c(F)cc2c(=O)c(C(=O)O)cn(C3CC3)c12 | ATCC 14468 | - | agar | 4.12 µM
Cc1c(C2=C(Br)C(=O)NC2=O)c2ccccc2n1C | SG987 | - | - | 12.5 µg/mL
CCO | mc2155 | - | absorbance | 0.86 µM
CCCCCCCC(CCCCCCC)NC(=O)NC(CCC(=O)O)(CCC(=O)O)CCC(=O)O | mc155 | - | - | 36 µg/mL
Cc1noc(C)c1-n1sc(=O)n(-c2ccc(F)cc2)c1=O | mc2155 | - | broth dilution | 100 µg/mL
CCCC[P+](c1ccccc1)(c1ccccc1)c1ccccc1 | mc2155 | - | broth dilution | >128 µg/mL
Cc1ccc(C2=NNC(c3cn(-c4ccc(Cl)cc4)nc3-c3ccc(Cl)cc3)C2)o1 | - | - | resazurin | 62.5 µg/mL
O=C(Nc1cccc(CN2CCOCC2)c1)c1ccc(-c2ccccc2)cc1 | 103599 | - | - | >16 µg/mL
CCCCCCCCC(O)[C@@H]1O[C@H]([C@H](O)CO)C(O)C1O | mc2155 | - | absorbance | 0.86 µM
CCCCCCCCCCCC#CCCC(=O)O | mc2155 | - | - | 30 µg/mL
CN1CCN(Cc2ccccc2NC(=O)/C=C/c2ccccc2)CC1 | 103599 | - | - | >16 µg/mL
Cc1ccc(-c2nc(C)c(-c3cn4cc(Br)ccc4n3)s2)cc1 | mc2155 | - | broth dilution / absorbance | >50 µg/mL
O=c1sn(-c2ccc([N+](=O)[O-])cc2Cl)c(=O)n1CC1CC1 | mc2155 | - | broth dilution | 50 µg/mL
CCCCCCCCCC(CCCCCCCCC)NC(=O)NC(CCC(=O)O)(CCC(=O)O)CCC(=O)O | mc155 | - | - | 108 µg/mL
Cn1c(=O)sn(-c2cccc3ccccc23)c1=O | mc2155 | - | broth dilution | 25 µg/mL
COc1c(N2CCN(Cc3ccc4c(c3)OCO4)CC2)c(F)c(N)c2c(=O)c(C(=O)O)cn(C3CC3)c12 | ATCC 14468 | - | agar | 6.13 µM
Fc1ccc(C(Cn2ccnc2)NCc2cccc3ccccc23)cc1 | CIP 103599 | - | - | 16 µg/mL
Clc1ccc(-n2cc(C3CC(c4ccc(-c5ccccc5)cc4)=NN3)c(-c3cccs3)n2)cc1 | - | - | resazurin | 7.8 µg/mL
CCCCCCCCN(CCCCCCCC)C(=O)NC(CCC(=O)O)(CCC(=O)O)CCC(=O)O | mc155 | - | - | 54 µg/mL
Cc1nc(-c2ccccc2)sc1-c1cn2cc(Br)ccc2n1 | mc2155 | - | broth dilution / absorbance | 25 µg/mL
COc1cccc(-c2[nH]c3ccccc3c2C2=C(Br)C(=O)NC2=O)c1 | SG987 | - | - | 3.125 µg/mL
CCCCCCCCCCCCCCCCCCC(=O)NC(C)(CCC(=O)O)CCC(=O)O | mc155 | - | - | 9 µg/mL
COc1c(N2CCC(N3CCCCC3)CC2)c(F)c([N+](=O)[O-])c2c(=O)c(C(=O)O)cn(C3CC3)c12 | ATCC 14468 | - | agar | 12.79 µM
CCCCCCCCCCCCCCCCCCCCCCNC(=O)NC(CCC(=O)O)(CCC(=O)O)CCC(=O)O | mc155 | - | - | 36 µg/mL
NC1CCN(CCCCn2ccc(Nc3cc(C(=O)N4CCN(CO)CC4)ccn3)nc2=O)CC1 | - | - | turbidity | 32–128 µg/mL
CN(C)C(=O)CC(CSc1ccccc1)Nc1c(C(=O)N/N=C/c2ccc(Br)s2)cnc2cc(F)ccc12 | ATCC 19420 | - | resazurin | >100 µg/mL
COc1ccc(-c2nn(-c3ccc(Cl)cc3)cc2C2CC(c3ccc(-c4ccccc4)cc3)=NN2)cc1 | - | - | resazurin | 15.6 µg/mL
CCCCCCCCCCCCCCC#CCC(=O)O | mc2155 | - | - | 36 µg/mL
COc1ccc2[nH]c(=O)c(-c3ccccc3)c(O)c2c1 | MC2 155 lux | - | luminescence | 23.2 µM
CN1CCN(Cc2ccccc2NC(=O)c2ccc(-c3ccccc3)cc2)CC1 | 103599 | - | - | >16 µg/mL
C(=C\c1ccccc1)/CNC(Cn1ccnc1)c1ccccc1 | CIP 103599 | - | - | >16 µg/mL
CCCCCCCCCCCCCCC/C=C/C(=O)O | mc2155 | - | - | >200 µg/mL
CCCCCCCCCCCCCCCC(=O)NC1CNC(=O)C(C2CCN=C(N)N2)NC(=O)/C(=C/NC(N)=O)NC(=O)C(CO)NC(=O)C(CO)NC1=O | rabinowitchi 15 | - | - | 5 µg/mL
Clc1ccc(-n2cc(C3CC(c4ccc5c(c4)CCO5)=NN3)c(-c3ccccc3)n2)cc1 | - | - | resazurin | 15.6 µg/mL
CCCCNC(=O)c1cc([N+](=O)[O-])cc([N+](=O)[O-])c1 | mc2155 | - | visual reading | 4 µg/mL
Clc1ccc(-c2nn(-c3ccc(Cl)cc3)cc2C2CC(c3ccc4c(c3)CCO4)=NN2)cc1 | - | - | resazurin | 62.5 µg/mL
NCCC[C@H](N)CC(=O)N[C@H]1CNC(=O)[C@H]([C@H]2C[C@H](O)NC(N)=N2)NC(=O)/C(=C/NC(N)=O)NC(=O)[C@H](CO)NC(=O)[C@H](CO)NC1=O | rabinowitchi 33 | - | - | 40 µg/mL
CCCCCCCCCCCCCCCCCCCCCCCOC(=O)NC(CCC(=O)O)(CCC(=O)O)CCC(=O)O | mc155 | - | - | 72 µg/mL
NNC(=O)c1ccncc1 | MC^2 847 | - | - | 30 µg/mL
CN1CCN(Cc2ccc(NC(=O)/C=C/c3ccccc3)cc2)CC1 | 103599 | - | - | >16 µg/mL
CCCCCCCCC(O)[C@@H]1O[C@H]([C@H](O)C(=O)OC)C(O)C1O | mc2155 | - | absorbance | 1.6 µM
COc1c(N2CCC3(CC2)OCCO3)c(F)c([N+](=O)[O-])c2c(=O)c(C(=O)O)cn(C3CC3)c12 | ATCC 14468 | - | agar | 6.75 µM
O=C1COc2ccc(N3C[C@H]4CN(CCn5c(=O)ccc6ccc(Oc7cccnc7)nc65)C[C@@H]4OC3=O)nc2N1 | ATCC 19420 | - | broth dilution | ≤1 µg/mL
[C-]#[N+][C@@]12[C@@](C)(C=C)[C@H](Cl)C[C@@H]3C(C)(C)c4cccc5[nH]c(c(c45)[C@]31O)C(C)(C)[C@]21CO1 | - | - | resazurin | 23.4 µM
NC1CCN(CCCCn2ccc(Nc3nccc(C(=O)NC4CNC4)c3F)nc2=O)CC1 | - | - | turbidity | 32–128 µg/mL
CC1OC(n2ccc(NC(=O)c3ccc(N)cc3)nc2=O)CCC1OC1OC(C)C(N(C)C)C(O)C1O | - | - | broth dilution / agar diffusion | 32 µg/mL
Clc1ccc(C(Cn2ccnc2)NCc2cccc3ccccc23)c(Cl)c1 | CIP 103599 | - | - | >16 µg/mL
CCOC(=O)c1cccc(-n2sc(=O)n(C3Cc4ccccc4C3)c2=O)c1 | mc2155 | - | broth dilution | 50 µg/mL
CN(C)C(=O)CC(CSc1ccccc1)Nc1c(C(=O)N/N=C/c2cc(F)ccc2O)cnc2cc(F)ccc12 | ATCC 19420 | - | resazurin | >100 µg/mL
c1ccc(-c2ccc(CNC(Cn3ccnc3)c3ccccc3)cc2)cc1 | CIP 103599 | - | - | 16 µg/mL
CNCCC[C@@H](CN[C@H](CN)Cc1cccc2ccccc12)NCCc1cccc2ccccc12 | mc2155 | - | absorbance | 12.5 µM
CCCCCCCCCCCCC#CCCCC(=O)O | mc2155 | - | - | 360 µg/mL
Clc1ccc(C(Cn2ccnc2)NCc2ccc(-c3ccccc3)cc2)c(Cl)c1 | CIP 103599 | - | - | >16 µg/mL
COc1ccc(/C=N/NC(=O)c2cnc3cc(F)ccc3c2NC(CSc2ccccc2)CC(=O)N(C)C)c(F)c1 | ATCC 19420 | - | resazurin | >100 µg/mL
NC1CCN(CCCCn2ccc(Nc3ccc(CNC(=O)[C@@H](N)CO)cn3)nc2=O)CC1 | - | - | turbidity | 8–32 µg/mL
CN(C)C(=O)CC(CSc1ccccc1)Nc1c(C(=O)N/N=C/c2cccnc2)cnc2cc(F)ccc12 | ATCC 19420 | - | resazurin | >100 µg/mL
COc1ccc2c3conc3c(=O)n(CCN3C[C@@H]4CN(c5ccc6c(n5)NC(=O)CO6)C(=O)O[C@H]4C3)c2n1 | ATCC 19420 | - | broth dilution | ≤1 µg/mL
Cn1c(=O)sn(-c2ccccc2)c1=O | mc2155 | - | broth dilution | 25 µg/mL
Cc1nc(-c2ccccc2)sc1-c1cn2ccccc2n1 | mc2155 | - | broth dilution / absorbance | >50 µg/mL
CC[C@H](C)[C@@H](NC(=O)[C@@H](CCC(=O)O)NC(=O)[C@H](Cc1cnc[nH]1)NC(=O)[C@H](C)NC(=O)[C@H](N)Cc1ccccc1)C(=O)N[C@H]1CCCCNC1=O | - | - | - | >50 µg/mL
O=C(NCCCOCCOCCOCCNC(=O)c1ccc2c(c1)B(O)OC2)c1ccc2c(c1)B(O)OC2 | mc2155 | - | visual reading / absorbance | 390–780 µM
O=C1NC(=O)C(c2c(-c3ccccc3)[nH]c3ccccc23)=C1Br | SG987 | - | - | 18.4 µg/mL

Again, the opening 9 rows:

Fc1ccc(C(Cn2ccnc2)NC/C=C/c2ccccc2)cc1 ; strain: CIP 103599 ; value: >16 µg/mL
Cc1ccc(-c2nc(C)c(-c3cn4ccccc4n3)s2)cc1 ; strain: mc2155 ; method: broth dilution / absorbance ; value: >50 µg/mL
COc1cccc(-c2[nH]c3ccccc3c2C2=C(Br)C(=O)N(C)C2=O)c1 ; strain: SG987 ; value: 3.125 µg/mL
Cc1nc(-c2ccccc2)sc1-c1cn2cc(Cl)ccc2n1 ; strain: mc2155 ; method: broth dilution / absorbance ; value: >50 µg/mL
CCCCCCCCC(O)[C@@H]1O[C@H]([C@H](O)CN)C(O)C1O ; strain: mc2155 ; method: absorbance ; value: 0.3 µM
CCCCCCCCCCC#CCCCC(=O)O ; strain: mc2155 ; value: 80 µg/mL
O=C1CCC(=O)N(O)CCCCCNC(=O)CCC(=O)N(O)CCCCCNC(=O)CCC(=O)N(O)CCCCCN1 ; strain: mc2155 ; method: MTT ; value: >160 µM
CCCCCCCCCCCCCCCCCCCCCC(=O)NC(CCC(=O)O)(CCC(=O)O)CCC(=O)O ; strain: mc155 ; value: 27 µg/mL
C=C1C2CCC(CO)[C@@]23CC[C@H](C3)C1(C)C ; changes: MDR quinolone-resistant ; method: agar diffusion ; value: 25 µg/mL